# Single amino acid changes in Zika NS2B-NS3 and viral growth

Protein: NS2B and the protease part of NS3 of Zika virus strain MR766. Positions count along the chain below; NS2B spans 2-131 and NS3 starts at 132.
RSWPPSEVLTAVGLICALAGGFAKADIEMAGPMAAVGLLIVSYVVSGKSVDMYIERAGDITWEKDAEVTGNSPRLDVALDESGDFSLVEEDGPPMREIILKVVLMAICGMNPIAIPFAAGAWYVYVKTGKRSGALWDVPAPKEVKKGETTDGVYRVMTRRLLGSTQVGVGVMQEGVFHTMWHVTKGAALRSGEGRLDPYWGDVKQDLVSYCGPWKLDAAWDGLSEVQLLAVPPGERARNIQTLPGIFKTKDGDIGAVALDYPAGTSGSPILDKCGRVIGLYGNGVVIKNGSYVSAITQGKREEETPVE

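Libraries of single mutants were passaged as virus pools on Huh-7.5 cells. Deep sequencing gave the change in frequency of each mutant relative to wild type, averaged over three replicate libraries (two for positions 207-308). The study looked for pockets that tolerate few changes, as a guide for inhibitor design.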

The number is log2 of the effect relative to wild type; negative values mean reduced growth, higher values better tolerance.
Substitutions are written as wild-type residue, site number, new residue.
An asterisk is a stop codon; stop codons read about -7, near the floor of the assay.
Values above 0 are not proof of better growth: six high scorers were tested one by one, five grew less well than wild type and one about as well.
Position 1 still belongs to NS2A. In the paper, -1 or higher counts as tolerated.
Positions 1-103, 104-206 and 207-308 were made and measured as separate libraries.

mutation,log2 effect
S6F,-5.35
C16K,-6.28
A17Q,-4.45
L18D,-6.22
L18K,-6.77
L18S,-4.43
E28F,-3.98
P32H,-4.48
V36L,-3.06
S42Q,-6.06
E55D,-2.86
T61W,-2.06
A66H,-6.22
E67V,-1.55
N71E,-5.63
S72E,-5.41
P73*,-6.89
F85C,-3.98
E89F,-2.54
E89T,-1.00
D91M,-1.70
G92M,-1.82
R96P,-3.67
E97L,-3.24
I99V,-0.22
L100*,-6.92
G109*,-5.15
I113F,-1.43
A119D,-5.40
A119K,-5.88
V124*,-7.23
T128I,-4.85
K130V,-6.20
R131*,-6.88
S132G,-1.82
G133K,-5.21
A134C,-2.24
T150H,-0.76
S164P,0.10
H178M,-4.61
S191E,-4.28
G192F,-5.46
R195V,-6.46
K215G,-4.40
D217V,-7.00
A218I,-6.10
D221I,-5.75
A230F,-3.97
N239H,-2.10
P244G,-5.41
I254S,-7.40
G255R,-7.59
A263K,-5.42
T265N,-4.53
G267C,-5.92
P269N,-4.60
C274A,-0.26
G282S,-5.93
Y292Q,-4.49
I296*,-6.56
G299C,-4.15
P306W,-2.96

7 of these entries, quoted again:

{"mutation": "N71E", "log2 effect": -5.63}
{"mutation": "P306W", "log2 effect": -2.96}
{"mutation": "R195V", "log2 effect": -6.46}
{"mutation": "C274A", "log2 effect": -0.26}
{"mutation": "G109*", "log2 effect": -5.15}
{"mutation": "V124*", "log2 effect": -7.23}
{"mutation": "P244G", "log2 effect": -5.41}

Data from the supplement of Ni et al. 2025, doi:10.1038/s41467-025-63602-z.